A mixed list of measured activities; the numbers were collected in NIAID ChemDB.

Shared fields: host cell toxicity; read-out: CC50

CCn: concentration that lowers growth or viability of the cells by n%.

{"smiles": "Nc1nc(CCc2ccccc2)cc(C2CCN(C(=O)c3ccc4c(c3)OCO4)CC2)n1", "cell line": "Jurkat cells (PMA-stimulated)", "result": "2.1 µM"}
{"smiles": "COc1ccc2nc(Cl)c(/C=C/C(=O)c3cc(C)sc3C)cc2c1", "read by": "MTS", "cell line": "PBMC", "result": "3.9 µM"}
{"smiles": "O=c1cnn([C@@H]2O[C@H](CO)[C@@H](O)[C@H]2O)c(=O)[nH]1", "read by": "MTT / crystal violet", "cell line": "Madin-Darby bovine kidney", "result": ">100 µg/mL"}
{"smiles": "O=C(O)/C=C/c1cn([C@@H]2O[C@H](CO)[C@@H](O)[C@@H]2O)c(=S)[nH]c1=O", "cell line": "RPMI8226", "result": ">238.4 µM"}
{"smiles": "COc1ccc(Cc2cc(C3CCN(C(=O)c4ccc5c(c4)CCO5)CC3)nc(N)n2)cc1", "cell line": "Jurkat cells (PMA-stimulated)", "result": ">5 µM"}
{"smiles": "COc1ccc2nc(Cl)c(/C=C/C(=O)c3sccc3Cl)cc2c1", "read by": "MTS", "cell line": "CEM", "result": "2.3 µM"}
{"smiles": "COc1ccc(S(=O)(=O)NCCc2ccc3c(n2)NCCC3)cc1OC", "cell line": "PBMC", "result": "50 µM"}
{"smiles": "COc1ccc(Cc2cc(C3CCN(C(=O)c4ccc5ccoc5c4)CC3)nc(N)n2)cc1", "cell line": "Jurkat cells (PMA-stimulated)", "result": ">5 µM"}
{"smiles": "CO[C@H]1CC(=O)c2c(O)cccc2[C@H]1O", "cell line": "BCA", "result": "19.16 µg/mL"}
{"smiles": "COC(=O)N[C@H](C(=O)NC(C)(C)CCC[C@@H](CO)N(CC(C)C)S(=O)(=O)c1ccc(N)cc1)C(c1ccccc1)c1ccccc1", "read by": "microscopy", "cell line": "T lymphoid cells", "result": ">10 µM"}
{"smiles": "Nc1nc(=S)n([C@@H]2O[C@H](CO)[C@@H](O)[C@@H]2O)cc1/C=C/Br", "cell line": "RPMI8226", "result": ">258.7 µM"}
{"smiles": "COc1ccc2nc(Cl)c(/C=C/C(=O)c3sccc3Br)cc2c1", "read by": "MTS", "cell line": "PBMC", "result": "2.5 µM"}
{"smiles": "Cc1cn([C@@H]2O[C@H](CO)[C@@H](O)[C@@H]2O)c(=S)nc1N", "cell line": "RPMI8226", "result": ">275.1 µM"}
{"smiles": "CCC(=O)c1ccc(NC(=O)NCCc2ccc3c(n2)NCCC3)cc1", "cell line": "PBMC", "result": "31 µM"}
{"smiles": "O=C1CC[C@H](O)c2cccc(O)c21", "cell line": "NCI-H187", "result": "7.29 µg/mL"}
{"smiles": "CC(C)C[C@@H]1NC(=O)[C@H](Cc2c[nH]c3ccccc23)NC(=O)[C@@H](CCCN)NC(=O)[C@H](CC(N)=O)NC(=O)[C@H](C(C)C)NC(=O)[C@@H](Cc2ccc(Cl)cc2)NC1=O", "read by": "luminescence", "cell line": "Hep2G", "result": "60 µM"}
{"smiles": "C[C@H]1CO[C@@H]2CN3C=C(C(=O)NCc4ccncc4F)C(=O)C(=O)C3C(=O)N12", "read by": "XTT", "cell line": "CEM-SS", "result": ">0.01 µM"}
{"smiles": "CC(c1ccccc1)N1CCN(c2cccc(-c3cc(=O)n(O)c4ncccc34)c2)CC1", "cell line": "HeLa", "result": "<100 µM"}
{"smiles": "CCc1cn([C@@H]2O[C@H](CO)[C@@H](O)[C@@H]2O)c(=S)[nH]c1=O", "cell line": "RPMI8226", "result": ">264.9 µM"}
{"smiles": "CNC(=O)/C=C(\\c1ccccc1)c1ccc2nc(N)c(-c3cc(F)ccc3F)n2c1", "cell line": "H-HELA", "result": "4.87 µg/mL"}
{"smiles": "CS(=O)(=O)Nc1cccc(-c2cc(=O)n(O)c3ncccc23)c1", "cell line": "HeLa", "result": "<100 µM"}
{"smiles": "COc1c(C)c2c(c(O)c1CC(=O)O)C(=O)OC2", "read by": "MTT / crystal violet", "cell line": "Madin-Darby bovine kidney", "result": ">100 µg/mL"}
{"smiles": "Cc1c2ccnc(Cl)c2cc2c3cn(C)ccc-3nc12", "cell line": "HOS-/CD4+/CCR5+", "result": ">1 µM"}
{"smiles": "CC(C)C[C@H]1NC(=O)[C@@H](Cc2ccc(Cl)cc2)NC(=O)[C@H](Cc2c[nH]c3ccccc23)NC(=O)[C@@H](CCCN)NC(=O)[C@H](CC(N)=O)NC(=O)[C@H](C(C)C)NC1=O", "read by": "luminescence", "cell line": "Hep2G", "result": ">100 µM"}
{"smiles": "C[C@H](NC(=O)CCC(CCC(=O)N[C@@H](C)C(=O)O)(CCC(=O)N[C@@H](C)C(=O)O)NC(=O)CCOCC(COCCC(=O)NC(CCC(=O)N[C@@H](C)C(=O)O)(CCC(=O)N[C@@H](C)C(=O)O)CCC(=O)N[C@H](C)C(=O)O)(COCCC(=O)NC(CCC(=O)N[C@@H](C)C(=O)O)(CCC(=O)N[C@H](C)C(=O)O)CCC(=O)N[C@H](C)C(=O)O)COCCC(=O)NC(CCC(=O)N[C@@H](C)C(=O)O)(CCC(=O)N[C@H](C)C(=O)O)CCC(=O)N[C@H](C)C(=O)O)C(=O)O", "read by": "MTS", "cell line": "CD4+ T-cell", "result": ">100 µM"}
{"smiles": "CC(O)c1cn([C@@H]2O[C@H](CO)[C@@H](O)[C@@H]2O)c(=S)[nH]c1=O", "cell line": "RPMI8226", "result": ">263.5 µM"}
{"smiles": "CC(C)C[C@@H]1NC(=O)[C@H](Cc2c[nH]c3ccccc23)NC(=O)[C@@H](CCCN)NC(=O)[C@H](CC(N)=O)NC(=O)[C@H](C(C)C)NC(=O)[C@@H](C)NC1=O", "read by": "luminescence", "cell line": "Hep2G", "result": ">100 µM"}
{"smiles": "CC[C@@H](CCC[C@@H](CO)N(CCC(C)C)S(=O)(=O)c1ccc(N)cc1)NC(=O)[C@H](Cc1ccccc1Br)NC(=O)OC", "read by": "microscopy", "cell line": "T lymphoid cells", "result": ">10 µM"}
{"smiles": "COc1ccc(Cc2cc(C3CCN(C(=O)c4ccc5c(c4)OCO5)CC3)nc(N)n2)cc1OC", "cell line": "Jurkat cells (PMA-stimulated)", "result": "0.6 µM"}
{"smiles": "CNC(=O)/C=C(\\c1ccccc1)c1ccc2nc(N)c(-c3ccc(F)c(F)c3F)n2c1", "cell line": "H-HELA", "result": "6.98 µg/mL"}
{"smiles": "COC(=O)N[C@@H](Cc1ccccc1Br)C(=O)N[C@H](CCC[C@@H](CO)N(C(C)C)S(=O)(=O)c1ccc(CO)cc1)C1CC1", "read by": "microscopy", "cell line": "T lymphoid cells", "result": ">10 µM"}
{"smiles": "Nc1nc(=S)n([C@@H]2O[C@H](CO)[C@@H](O)[C@@H]2O)cc1/C=C/c1ccccc1", "cell line": "RPMI8226", "result": ">258.7 µM"}
{"smiles": "CN[C@@H]1[C@H](O[C@@H]2OC[C@@H](O)[C@H](O)[C@H]2O)[C@@H](O)[C@H](O[C@H]2c3cc(C)c(C(=O)N[C@H](C)C(=O)O)c(O)c3-c3c(cc4c(c3O)C(=O)c3cc(OC)cc(O)c3C4=O)[C@@H]2O)O[C@@H]1C", "cell line": "HCT116", "result": ">500 µg/mL"}
{"smiles": "Nc1nc(N)c2cc3c(nc2n1)CCc1ccccc1-3", "read by": "MTT", "cell line": "HCF-7", "result": "32.4 µM"}
{"smiles": "CC(C)C[C@@H]1NC(=O)[C@H](Cc2c[nH]c3ccccc23)NC(=O)[C@@H](CCCN)NC(=O)[C@H](C)NC(=O)[C@H](C(C)C)NC(=O)[C@@H](CC(C)C)NC1=O", "read by": "luminescence", "cell line": "Hep2G", "result": ">100 µM"}
{"smiles": "Cc1ccc2nc(Cl)c(/C=C/C(=O)c3c4ccccc4cc4ccccc34)cc2c1", "read by": "MTS", "cell line": "VERO", "result": "20.9 µM"}
{"smiles": "CCc1c(O)c2c(c(O)c1OC)C(=O)C(OC)CC2", "cell line": "BCA", "result": "5.36 µg/mL"}
{"smiles": "CCCN([C@H](CO)CCC[C@H](CC)NC(=O)[C@H](Cc1ccccc1Br)NC(=O)OC)S(=O)(=O)c1ccc(N)cc1", "read by": "microscopy", "cell line": "T lymphoid cells", "result": ">10 µM"}
{"smiles": "CCc1cn([C@@H]2C[C@H](F)[C@@H](CO)O2)c(=O)[nH]c1=O", "cell line": "F5000 (human embryo)", "result": "500 µM"}
{"smiles": "C/C1=C\\[C@H](O)C[C@@](C)(O)/C=C/[C@H](C(C)C)CC/C(C)=C/CCC1", "read by": "MTT", "cell line": "Astrocytes", "result": ">100 µM"}
{"smiles": "COc1c(C(=O)c2cnc3cc(=O)[nH]c(=O)n3c2)c(O)c(OC)c2occc12", "cell line": "HCV replicon cells", "result": "341 µM"}
{"smiles": "COc1ccc(Cc2cc(C3CCN(C(=O)c4ccc([N+](=O)[O-])cc4)CC3)nc(N)n2)cc1", "cell line": "Jurkat cells (PMA-stimulated)", "result": ">5 µM"}
{"smiles": "CCCCC(=O)OC1CC(OC(C)C(C)C(O)C(C)C(O)C(C)C2OC(=O)/C=C/CC(O)CC(O)CC(O)CCC(C)C(O)C[C@@]3(O)O[C@H](CC(O)CC(OC(=O)CC(=O)O)CCCC(O)C4OC4C2C)C[C@H](O)[C@H]3O)OC(C)C1O", "cell line": "P815", "result": ">100 µg/mL"}
{"smiles": "O=c1c(-c2ccc(F)cc2)c(O)c2cccnc2n1O", "cell line": "HeLa", "result": "<100 µM"}
{"smiles": "O=C(NCCc1cccc(-n2ccnc2)n1)Nc1cccc(C(F)(F)F)c1F", "cell line": "PBMC", "result": "15 µM"}
{"smiles": "CNC(=O)/C=C(\\c1ccccc1)c1ccc2nc(N)c(-c3ccc(F)cc3C(F)(F)F)n2c1", "cell line": "H-HELA", "result": ">10 µg/mL"}
{"smiles": "Cc1nc2cc(OC(F)(F)F)ccc2n1-c1ccc(C(=O)NC2CC2)s1", "read by": "resazurin", "cell line": "Dermal fibroblast", "result": ">62 µM"}
{"smiles": "COc1c(O)c2c(c(O)c1CCOC(C)=O)CCC(OC)C2=O", "cell line": "NCI-H187", "result": "0.25 µg/mL"}
{"smiles": "O=S(=O)(NCCc1ccc2c(n1)NCCC2)c1ccccc1OC(F)(F)F", "cell line": "PBMC", "result": "50 µM"}
{"smiles": "Cc1ccc2nc(Cl)c(/C=C/C(=O)c3ccc4ccccc4c3)cc2c1", "read by": "MTS", "cell line": "VERO", "result": "35.8 µM"}
{"smiles": "Cc1cc(CCCOc2c(C)cc(-c3noc(C(F)(F)F)n3)cc2C)on1", "read by": "MTT / crystal violet", "cell line": "Madin-Darby bovine kidney", "result": ">100 µg/mL"}
{"smiles": "CS(=O)(=O)c1ccc(Cc2cc(C3CCN(C(=O)c4ccc5c(c4)OCO5)CC3)nc(N)n2)cc1", "cell line": "Jurkat cells (PMA-stimulated)", "result": ">5 µM"}
{"smiles": "CN(C)CCCN1CCN(c2cccc(-c3cc(=O)n(O)c4ncccc34)c2)CC1", "cell line": "HeLa", "result": "<100 µM"}
{"smiles": "CCCc1cn([C@H]2C[C@H](O)[C@@H](CO)O2)c(=S)[nH]c1=O", "cell line": "RPMI8226", "result": ">277.6 µM"}
{"smiles": "COC(=O)N[C@H](C(=O)N[C@@H](C)CCC[C@@H](CO)N(C(C)C)S(=O)(=O)c1ccc(N)cc1)C(c1cccc(F)c1)c1cccc(F)c1", "read by": "microscopy", "cell line": "T lymphoid cells", "result": ">10 µM"}
{"smiles": "CC(C)C[C@@H]1NC(=O)[C@H](Cc2c[nH]c3ccccc23)NC(=O)[C@@H](CCCN)NC(=O)[C@@H](CCCN)NC(=O)[C@H](C(C)C)NC(=O)[C@@H](CC(C)C)NC1=O", "read by": "luminescence", "cell line": "Hep2G", "result": ">100 µM"}
{"smiles": "O=S(=O)(NCCc1ccc2c(n1)NCCC2)c1ccc(OC(F)(F)F)cc1", "cell line": "PBMC", "result": "50 µM"}
{"smiles": "CC[C@@H](C)[C@@H]1NC(=O)[C@H]([C@H](C)CC)NC(=O)[C@@H](CC(C)C)NC(=O)[C@H](CC(C)C)NC(=O)[C@H](Cc2c[nH]c3ccccc23)NC(=O)[C@@H](CCCN)NC1=O", "read by": "luminescence", "cell line": "Hep2G", "result": ">100 µM"}
{"smiles": "Nc1nc(N)c2cc3c(ccc4ccccc43)nc2n1", "read by": "MTT", "cell line": "PC-3", "result": "4.6 µM"}
{"smiles": "CCCN([C@H](CO)CCCC(C)(C)NC(=O)[C@@H](NC(=O)OC)C(c1ccccc1)c1ccccc1)S(=O)(=O)c1ccc(N)cc1", "read by": "microscopy", "cell line": "T lymphoid cells", "result": ">10 µM"}
{"smiles": "CC(C)C[C@@H]1NC(=O)[C@@H](Cc2ccc(Cl)cc2)NC(=O)[C@@H](CCCN)NC(=O)[C@H](CC(N)=O)NC(=O)[C@H](C(C)C)NC(=O)[C@@H](CC(C)C)NC1=O", "read by": "luminescence", "cell line": "Hep2G", "result": ">100 µM"}

8 of the rows above, restated:

smiles | read by | cell line | result
Cc1nc2cc(OC(F)(F)F)ccc2n1-c1ccc(C(=O)NC2CC2)s1 | resazurin | Dermal fibroblast | >62 µM
O=C(O)/C=C/c1cn([C@@H]2O[C@H](CO)[C@@H](O)[C@@H]2O)c(=S)[nH]c1=O | - | RPMI8226 | >238.4 µM
CCc1cn([C@@H]2O[C@H](CO)[C@@H](O)[C@@H]2O)c(=S)[nH]c1=O | - | RPMI8226 | >264.9 µM
COc1c(O)c2c(c(O)c1CCOC(C)=O)CCC(OC)C2=O | - | NCI-H187 | 0.25 µg/mL
CCC(=O)c1ccc(NC(=O)NCCc2ccc3c(n2)NCCC3)cc1 | - | PBMC | 31 µM
CC(C)C[C@H]1NC(=O)[C@@H](Cc2ccc(Cl)cc2)NC(=O)[C@H](Cc2c[nH]c3ccccc23)NC(=O)[C@@H](CCCN)NC(=O)[C@H](CC(N)=O)NC(=O)[C@H](C(C)C)NC1=O | luminescence | Hep2G | >100 µM
CCc1cn([C@@H]2C[C@H](F)[C@@H](CO)O2)c(=O)[nH]c1=O | - | F5000 (human embryo) | 500 µM
COc1ccc(Cc2cc(C3CCN(C(=O)c4ccc([N+](=O)[O-])cc4)CC3)nc(N)n2)cc1 | - | Jurkat cells (PMA-stimulated) | >5 µM

Lines come from different laboratories, so protocols vary. An empty or dashed field is not shown.